Measured values from several laboratories, pooled; numbers as filed in NIAID ChemDB.

Common to all: whole-cell or culture tests; agent: Mycobacterium avium complex

A number after MIC or MFC names an inhibition level or a share of isolates. Lines come from different laboratories, so protocols vary. a–b is a range or a potency band. An empty or dashed field is not shown.

smiles,strain or isolate,read-out,result
CC[C@H]1OC(=O)[C@H](C)C(=O)[C@H](C)[C@@H](O[C@@H]2O[C@H](C)C[C@H](N(C)C)[C@H]2O)[C@](C)(OC)C[C@@H](C)C(=O)[C@H](C)[C@H]2N(CCCCn3cnc(-c4cccnc4)c3)C(=O)O[C@]12C,24 isolates (HIV+),MIC90,128 µg/mL
N[C@@H]1CONC1=O,-,MIC90,18 µg/mL
CC1CN(c2c(F)cc3c(=O)c(C(=O)O)cn(C4CC4)c3c2F)C(C)CN1,-,MIC50,2 µg/mL
Cc1ccc(-n2cc(C(=O)O)c(=O)c3cc(F)c(N4CCNCC4)cc32)cc1,14 strains,MIC50,≥32 µg/mL
COc1c(N2CCNC(C)C2)c(F)cc2c(=O)c(C(=O)O)cn(C3CC3)c12,N-966,MIC,8 µg/mL
O=C1CN(/N=C/c2ccc([N+](=O)[O-])o2)C(=O)N1,31 strains,MIC,64 µg/mL
CO[C@H]1/C=C/O[C@@]2(C)Oc3c(C)c(O)c4c(=O)c(c5oc6cc(N7CCN(C(C)C)CC7)cc(=O)c6nc5c4c3=C2O)NC(=O)/C(C)=C\C=C\[C@H](C)[C@H](O)[C@@H](C)[C@@H](O)[C@@H](C)[C@H](OC(C)=O)[C@@H]1C,20 strains,MIC90,0.07–0.3 µg/mL
CO[C@H]1/C=C/O[C@@]2(C)Oc3c(C)c(O)c4c(O)c(c5c(c4c3C2=O)NC2(CCN(CC(C)C)CC2)N=5)=NC(=O)/C(C)=C\C=C\[C@H](C)[C@H](O)[C@@H](C)[C@@H](O)[C@@H](C)[C@H](OC(C)=O)[C@@H]1C,-,MIC50,0.14 µg/mL
CC[C@H]1OC(=O)[C@H](C)[C@@H](O[C@H]2C[C@@](C)(OC)[C@@H](O)[C@H](C)O2)[C@H](C)[C@@H](O[C@@H]2O[C@H](C)C[C@H](N(C)C)[C@H]2O)[C@](C)(OC)C[C@@H](C)C(=O)[C@H](C)[C@@H](O)[C@]1(C)O,101,MIC,16 µg/mL
CCn1cc(C(=O)O)c(=O)c2cc(F)c(N3CCC(CNCCO)C3)c(F)c21,-,MIC90,32 µg/mL
CC1(C)S[C@@H]2[C@H](NC(=O)[C@H](N)c3ccccc3)C(=O)N2[C@H]1C(=O)O,31 strains,MIC,16 µg/mL
O=C(O)c1cn(C2CC2)c2c(F)c(N3CCC(O)C3)c(F)cc2c1=O,14 strains,MIC90,8 µg/mL
CCn1cc(C(=O)O)c(=O)c2cc(F)c(N3CCNCC3)cc21,-,MIC90,25.7 µg/mL
CN(C)CC1CCN(c2c(F)cc3c(=O)c(C(=O)O)cn(C4CC4)c3c2F)C1,-,MIC90,2 µg/mL
O=C(O)c1cn(-c2ccc(F)cc2F)c2cc(N3CCNCC3)c(F)cc2c1=O,14 strains,MIC90,8 µg/mL
CCn1cc(C(=O)O)c(=O)c2cc(F)c(N3CCS(=O)CC3)c(F)c21,-,MIC50,8 µg/mL
CO[C@H]1/C=C/O[C@@]2(C)Oc3c(C)c(O)c4c(O)c(c5c(c4c3C2=O)NC2(CCN(CC(C)C)CC2)N=5)=NC(=O)/C(C)=C\C=C\[C@H](C)[C@H](O)[C@@H](C)[C@@H](O)[C@@H](C)[C@H](OC(C)=O)[C@@H]1C,20 strains,MIC90,1.6 µg/mL
CC[C@H]1OC(=O)[C@H](C)[C@@H](O[C@H]2C[C@@](C)(OC)[C@@H](O)[C@H](C)O2)[C@H](C)[C@@H](O[C@@H]2O[C@H](C)C[C@H](N(C)C)[C@H]2O)[C@](C)(OC)C[C@@H](C)C(=O)[C@H](C)[C@@H](O)[C@]1(C)O,Strain #3,MIC,1 µg/mL
CC[C@@H](CO)NCCN[C@@H](CC)CO,N-966,MIC,32 µg/mL
Clc1ccc2c(c1)nc1cc(Nc3ccccc3)c(=NC3CCCCC3)cc-1n2-c1ccccc1,-,MIC50,0.1 µg/mL
CC(C)N=c1cc2n(-c3ccc(Cl)cc3)c3ccccc3nc-2cc1Nc1ccc(Cl)cc1,PLR-3/HIV+,MIC,0.125 µg/mL
CC(C)N=c1cc2n(-c3ccc(Cl)cc3)c3ccccc3nc-2cc1Nc1ccc(Cl)cc1,1110/HIV-,MIC,0.12 µg/mL
CC(=O)OCC1=C(C(=O)O)N2C(=O)[C@@H](NC(=O)CSc3ccncc3)[C@H]2SC1,-,MIC90,58 µg/mL
C[C@H]1COc2c(N3CCN(C)CC3)c(F)cc3c(=O)c(C(=O)O)cn1c23,-,MIC90,1–32 µg/mL
CC(C)c1c(O)cc(C(N=C(N)N)C(=O)NCC(=O)O)cc1O,101,MIC,31 µg/mL
CN1CCCC1CCN=c1cc2n(-c3ccc(Cl)cc3)c3ccccc3nc-2cc1Nc1ccccc1,10 srtains,MIC50,1.6 µg/mL
NNC(=O)c1ccncc1,-,MIC90,7.5 µg/mL
CC[C@@H](CO)NCCN[C@@H](CC)CO,TMC1463 (serovar 4),MIC,5 µg/mL
CO/N=C(\C(=O)N[C@@H]1C(=O)N2C(C(=O)O)=C(CSc3nc(=O)c(=O)[nH]n3C)CS[C@H]12)c1csc(N)n1,31 strains,MIC,32 µg/mL
OC[C@H]1OC(O)C[C@@H](O)[C@@H]1O,TMC1463 (serovar 4),MIC,1000 µg/mL
CC1CN(c2c(F)cc3c(=O)c(C(=O)O)cn(C4CC4)c3c2F)CCN1,-,MIC90,2 µg/mL
CC(=O)NC[C@H]1CN(c2ccc(N3CCOCC3)c(F)c2)C(=O)O1,13 isolates,MIC90,32 µg/mL
CC1CN(c2cc3c(cc2F)c(=O)c(C(=O)O)cn3C2CC2)CC(C)N1,14 strains,MIC90,1 µg/mL
CN[C@@H]1[C@H](O)[C@H](NC)[C@H]2O[C@@]3(O)C(=O)C[C@@H](C)O[C@H]3O[C@@H]2[C@H]1O,25 isolates,MBC90,>64 µg/mL
NC1[C@H]2CN(c3nc4c(cc3F)c(=O)c(C(=O)O)cn4-c3ccc(F)cc3F)C[C@@H]12,22 strains,MIC90,>256 µg/mL
NC[C@@H]1O[C@H](O[C@H]2[C@@H](O)[C@H](O[C@@H]3[C@@H](O)[C@H](N)C[C@H](N)[C@H]3O[C@H]3O[C@H](CO)[C@@H](O)[C@H](O)[C@H]3N)O[C@@H]2CO)[C@H](N)[C@@H](O)[C@@H]1O,163,MIC,<1.56 µg/mL
N[C@@H]1CN(c2c(F)cc3c(=O)c(C(=O)O)cn([C@@H]4C[C@@H]4F)c3c2Cl)CC12CC2,N-966,MIC,4 µg/mL
C[C@@H](O)[C@H]1C(=O)N2C(C(=O)O)=C(SCCN=CN)C[C@H]12,31 strains,MIC,8 µg/mL
CN1CCN(CCCN=c2cc3n(-c4ccc(Cl)cc4)c4ccccc4nc-3cc2Nc2ccccc2)CC1,10 srtains,MIC50,1.7 µg/mL
CO[C@H]1/C=C/O[C@@]2(C)Oc3c(C)c(O)c4c(O)c(c5c(c4c3C2=O)NC2(CCN(CC(C)C)CC2)N=5)=NC(=O)/C(C)=C\C=C\[C@H](C)[C@H](O)[C@@H](C)[C@@H](O)[C@@H](C)[C@H](OC(C)=O)[C@@H]1C,101,MIC,2 µg/mL
CN[C@@H]1[C@H](O[C@H]2[C@H](O[C@H]3[C@H](O)[C@@H](O)[C@H](N=C(N)N)[C@@H](O)[C@@H]3N=C(N)N)O[C@@H](C)[C@]2(O)C=O)O[C@@H](CO)[C@H](O)[C@H]1O,Isolate C-45,MIC,25 µg/mL
CO[C@H]1/C=C/O[C@@]2(C)Oc3c(C)c(O)c4c(O)c(c(/C=N/N5CCN(C/C=C/c6ccccc6)CC5)c(O)c4c3C2=O)NC(=O)/C(C)=C\C=C\[C@H](C)[C@H](O)[C@@H](C)[C@@H](O)[C@@H](C)[C@H](OC(C)=O)[C@@H]1C,SK-18,MIC,0.06 µg/mL
CC1CN(c2cc3c(c(CO)c2F)c(=O)c(C(=O)O)cn3C2CC2)CCN1,-,MIC50,16 µg/mL
CC[C@@H](CO)NCCN[C@@H](CC)CO,3350-4,MIC,3.8 µg/mL
NCC[C@H](O)C(=O)N[C@@H]1C[C@H](N)[C@@H](O[C@H]2O[C@H](CN)[C@@H](O)[C@H](O)[C@H]2O)[C@H](O)[C@H]1O[C@H]1O[C@H](CO)[C@@H](O)[C@H](N)[C@H]1O,20 strains,MIC50,4 µg/mL
NCC1CCN(c2c(F)cc3c(=O)c(C(=O)O)cn(C4CC4)c3c2F)C1,-,MIC90,8 µg/mL
CO[C@H]1/C=C/O[C@@]2(C)Oc3c(C)c(O)c4c(O)c(c(/C=N/N5CCN(C)CC5)c(O)c4c3C2=O)NC(=O)/C(C)=C\C=C\[C@H](C)[C@H](O)[C@@H](C)[C@@H](O)[C@@H](C)[C@H](OC(C)=O)[C@@H]1C,20 strains,MIC90,>8 µg/mL
CO[C@H]1/C=C/O[C@@]2(C)Oc3c(C)c(O)c4c(=O)c(c5oc6cc(N7CCN(CC(C)C)CC7)cc(=O)c6nc5c4c3=C2O)NC(=O)/C(C)=C\C=C\[C@H](C)[C@H](O)[C@@H](C)[C@@H](O)[C@@H](C)[C@H](OC(C)=O)[C@@H]1C,20 strains,MIC90,0.07–0.15 µg/mL
CN[C@@H]1[C@@H](O)[C@@H](O[C@@H]2[C@@H](O)[C@H](O[C@H]3O[C@H](CN)CC[C@H]3N)[C@@H](N)C[C@H]2N)OC[C@]1(C)O,ATCC 35718,MIC,32 µg/mL
COc1c(N2CCNC(C)C2)c(F)cc2c(=O)c(C(=O)O)cn(C3CC3)c12,-,MIC90,8–16 µg/mL
CC1CN(c2cc3c(cc2F)c(=O)c(C(=O)O)cn3C2CC2)CCN1,14 strains,MIC90,2 µg/mL
CC(C)N=c1cc2n(-c3ccc(Cl)cc3)c3ccccc3nc-2cc1Nc1ccc(Cl)cc1,Strain #3,MIC,0.12 µg/mL
CC(C)N=c1cc2n(-c3ccc(Cl)cc3)c3ccccc3nc-2cc1Nc1ccc(Cl)cc1,-,MIC50,0.13 µg/mL
CCC1CN(c2cc3c(cc2F)c(=O)c(C(=O)O)cn3C(C)(C)C)CCN1,14 strains,MIC50,2 µg/mL
CC[C@@H](CO)NCCN[C@@H](CC)CO,-,MIC50,1.7 µg/mL
CCC[C@@H]1C[C@@H](C(=O)N[C@@H]([C@H]2O[C@H](SC)[C@H](O)[C@@H](O)[C@H]2O)[C@H](C)Cl)N(C)C1,31 strains,MIC,4 µg/mL
CCN=c1cc2n(-c3ccc(Cl)cc3)c3ccccc3nc-2cc1Nc1ccc(Cl)cc1,-,MIC50,0.09 µg/mL
C[C@@H]1CN(c2c(F)c(N)c3c(=O)c(C(=O)O)cn(C4CC4)c3c2F)C[C@H](C)N1,-,MIC90,4–16 µg/mL

The last 8 rows once more:

| smiles | strain or isolate | read-out | result |
|---|---|---|---|
| CC1CN(c2cc3c(cc2F)c(=O)c(C(=O)O)cn3C2CC2)CCN1 | 14 strains | MIC90 | 2 µg/mL |
| CC(C)N=c1cc2n(-c3ccc(Cl)cc3)c3ccccc3nc-2cc1Nc1ccc(Cl)cc1 | Strain #3 | MIC | 0.12 µg/mL |
| CC(C)N=c1cc2n(-c3ccc(Cl)cc3)c3ccccc3nc-2cc1Nc1ccc(Cl)cc1 | - | MIC50 | 0.13 µg/mL |
| CCC1CN(c2cc3c(cc2F)c(=O)c(C(=O)O)cn3C(C)(C)C)CCN1 | 14 strains | MIC50 | 2 µg/mL |
| CC[C@@H](CO)NCCN[C@@H](CC)CO | - | MIC50 | 1.7 µg/mL |
| CCC[C@@H]1C[C@@H](C(=O)N[C@@H]([C@H]2O[C@H](SC)[C@H](O)[C@@H](O)[C@H]2O)[C@H](C)Cl)N(C)C1 | 31 strains | MIC | 4 µg/mL |
| CCN=c1cc2n(-c3ccc(Cl)cc3)c3ccccc3nc-2cc1Nc1ccc(Cl)cc1 | - | MIC50 | 0.09 µg/mL |
| C[C@@H]1CN(c2c(F)c(N)c3c(=O)c(C(=O)O)cn(C4CC4)c3c2F)C[C@H](C)N1 | - | MIC90 | 4–16 µg/mL |